Reference: PubChem BioAssay AID624099 (ICCB-Longwood, 2012)

- Purpose: 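Human genes that papillomavirus E2 requires to repress the HPV18 LCR promoter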 (primary screen)
- Cells: human C33A cervical carcinoma cells (HPV-negative) stably expressing BPV1 E2 and an HPV18 LCR luciferase reporter
- Reagents: siRNA pool against human genes, 40 nM
- Duration: 72 h
- Read-out: 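HPV18 LCR reporter light per well, converted to plate-wise z-scores that exclude control wells, and averaged over triplicate plates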
- Scale: mean z-score and z-score: higher = stronger reporter signal, weaker E2 silencing
- Rule for the call: 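Hit if mean z-score reaches 2 and two or more of three replicate z-scores also reach 2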
In all, the deposit lists about 21,000 reagents; below is a random part of them. Of all reagents, 497 (2.4%) are marked active. 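Higher z means weaker E2 silencing; only reporter increases were scored, and knock-downs that hurt cell survival may mask genuine repressor factors.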 Unmarked entries are inactive. Reagents against one gene are numbered here.

| Target gene | reagent | mean z-score | z-score, replicate A | z-score, replicate B | z-score, replicate C |
| --- | --- | --- | --- | --- | --- |
| TMEM244 | 1 | -1.16 | -0.89 | -1.64 | -0.94 |
| VMAC | 1 | -1.85 | -1.43 | -2.32 | -1.8 |
| MECOM | 1 | -0.24 | 0.22 | -0.38 | -0.57 |
| MECOM | 2 | 1.05 | 1.36 | 0.9 | 0.88 |
| ITGB3 | 1 | 1.17 | 1.1 | 1.16 | 1.24 |
| IL17RB | 1 | -0.14 | -0.35 | 0.06 | -0.12 |
| NEB | 1 | -0.84 | -0.97 | -0.69 | -0.86 |
| TRPC5 | 1 | 0.44 | 0.19 | 0.67 | 0.47 |
| WFIKKN1 | 1 | 1.11 | 1.31 | 0.67 | 1.34 |
| BCL2 | 1 | -0.7 | -0.49 | -0.83 | -0.79 |
| RTN1 | 1 | 0.44 | 0.34 | 0.48 | 0.51 |
| INHBA | 1 | -0.41 | -0.39 | -0.26 | -0.57 |
| ENPP1 | 1 | 0.05 | -0.02 | 0.05 | 0.12 |
| GEMIN7 | 1 | -0.5 | -0.27 | -0.66 | -0.58 |

Not a retest: 2 of the entries above.
| Target gene | reagent | mean z-score | z-score, replicate A | z-score, replicate B | z-score, replicate C |
| --- | --- | --- | --- | --- | --- |
| RTN1 | 1 | 0.44 | 0.34 | 0.48 | 0.51 |
| INHBA | 1 | -0.41 | -0.39 | -0.26 | -0.57 |

The list goes on:
| Target gene | reagent | mean z-score | z-score, replicate A | z-score, replicate B | z-score, replicate C |
| --- | --- | --- | --- | --- | --- |
| LOC401254 (retired record) | 1 | 1.09 | 1.14 | 0.97 | 1.16 |
| SLC38A1 | 1 | 0.64 | 0.76 | 0.31 | 0.85 |
| CCSER2 | 1 | 0.61 | 0.72 | 0.64 | 0.46 |
| PRIM1 | 1 | 0.19 | -0.32 | 0.52 | 0.36 |
| GYPB | 1 | 0.19 | -0.18 | 0.27 | 0.48 |
| CRLS1 | 1 | 0.52 | 0.43 | 0.59 | 0.54 |
| FNBP1L | 1 | 1.18 | 1.44 | 0.84 | 1.26 |
| OFD1 | 1 | -0.46 | -0.7 | -0.33 | -0.35 |
| LINC01931 | 1 | 0.92 | 0.64 | 0.82 | 1.29 |
